A mixed list of measured activities; the numbers were collected in NIAID ChemDB.

All rows: cytotoxicity tests; measure: CC50

CCn is the concentration with n% toxicity to the cells. Neighbouring rows are from separate reports.

COCO[C@@H]1C[C@@H](/C=C/I)N2CCCC[C@@H]12 ; cells: Human foreskin fibroblasts (HFF) ; method: MTT ; result: 49 µM
O=C1c2cccc(O)c2C(=O)c2c(O)c(O)cc(O)c21 ; cells: MRC-5 ; result: 21.8 µM
S=C(NCCN1CCCC1)Nc1ccc(Br)cn1 ; cells: HUMAN SPERM ; result: >500 µM
c1cc(CN2CCCNCCNCCCNCC2)ccc1CN1CCCNCCNCCCNCC1 ; cells: MAGI-CCR5 ; result: >10 µM
COC(=O)[C@@H]1[C@H](c2cc(OC)c3nc4ccccc4nc3c2)c2cc3c(cc2C2=NOC[C@@H]21)OCO3 ; cells: MEL-28 ; result: 10 µM
COC(=O)C(N)(c1c[nH]c2ccc(Cl)cc12)C(F)(F)F ; cells: TZM-bl ; method: MTT ; result: 130 µM
Cl.F/C(COc1ccc2c(c1)[nH]c1ccccc12)=C1/CN2CCC1CC2 ; cells: Huh-7.5.1-8 ; method: XTT ; result: >1.5 µM
O=C1C[C@@H](c2ccc(O)cc2)Oc2cc(O)cc(O)c21 ; cells: HCT-8 ; result: >100 µM
C=CCCC[C@@H]1OC(=O)CNC(=O)[C@H]([C@@H](C)CC)NC(=O)[C@@H]2CCCN2C(=O)[C@H]([C@@H](C)CC)OC(=O)[C@H](Cc2ccccc2)N(C)C(=O)[C@H](C(C)C)NC(=O)C1(C)C ; cells: HT-29 ; method: MTT ; result: 13 µM
COc1cc2c(cc1O)C(OC)CN1CC=C3C=C[C@H](OC)C[C@]321 ; cells: HEP-2 ; method: MTT ; result: 11.5 µg/mL
COc1cc(C(=O)Oc2c(-c3ccc(Cl)cc3)oc3ccccc3c2=O)cc(OC)c1O ; cells: KB ; result: 26 µM
O=C(O)c1cc(O)c2c(c1)C(=O)c1cccc(O)c1C2=O ; cells: MRC-5 ; result: >40 µM
CO[C@H]1/C=C/O[C@@]2(C)Oc3c(C)c(O)c4c(O)c(c(/C=N/N5CCN(C)CC5)c(O)c4c3C2=O)NC(=O)/C(C)=C\C=C\[C@H](C)[C@H](O)[C@@H](C)[C@@H](O)[C@@H](C)[C@H](OC(C)=O)[C@@H]1C ; cells: RAW 264.7 ; method: resazurin / fluorescence ; result: 700 µg/mL
COC(=O)[C@@H]1C[C@@H](O[Si](C)(C)C(C)(C)C)[C@@H]2CC=CCN12 ; cells: Human foreskin fibroblasts (HFF) ; method: MTT ; result: 83 µM
O=c1[nH]c(-c2ccc3[nH]ncc3c2)nc2ccccc12 ; cells: OM-10.1 ; method: MTT ; result: 76.1 µM
Cc1cn([C@H]2C=C[C@@H](CO)O2)c(=O)[nH]c1=O ; cells: HeLaT4 ; result: >334.8 µM
O=c1c(-c2ccc(O)cc2)coc2cc(O)cc(O)c12 ; cells: HCT-8 ; result: >100 µM
Cc1cc(=O)c2c(O)c3c(O)cc(O)c4c5c(O)cc(O)c6c(O)c7c(=O)cc(C)cc7c(c65)c(c2c1)c34 ; cells: MRC-5 ; result: 11.1 µM
COc1cc([C@@H]2c3cc4c(cc3[C@H](OC(C)=O)[C@@H]3COC(=O)[C@H]23)OCO4)cc2c1OCCO2 ; cells: MEL-28 ; result: 2.2 µM
CCCCC#CCSc1ccccc1OC(C)=O ; cells: CrFK ; method: MTT ; result: >100 µM
O=c1c(-c2ccc(O)cc2)coc2c(O[C@@H]3O[C@H](CO)[C@@H](O)[C@H](O)[C@H]3O)c(O)ccc12 ; cells: HepG2 2.2.15 ; result: >100 µM
NC(=O)c1cn([C@@H]2O[C@H](CO)[C@@H](O)[C@@H]2O)c2ncnc(N)c12 ; cells: MEF ; result: 9 µM
CC(=O)O[C@H]1C(=O)[C@@]2(C)[C@H]([C@H](OC(=O)c3ccccc3)[C@]3(O)C[C@H](OC(=O)[C@H](O)[C@@H](NC(=O)c4ccccc4)c4ccccc4)C(C)=C1C3(C)C)[C@]1(OC(C)=O)CO[C@@H]1C[C@@H]2O ; cells: MCF-7 ; method: MTT ; result: 0.006 µM
O=c1c(O)c(-c2ccc(Cl)c(Cl)c2)oc2ccccc12 ; cells: KB ; result: 4.2 µM
COC(=O)[C@H](C)NP(=O)(OC[C@@H]1C[C@]12C[C@@H]2n1cnc2c(N)ncnc21)Oc1ccccc1 ; cells: 2.2.15 ; result: 27 µM
N/C(=N/O)c1cn([C@@H]2O[C@H](CO)[C@@H](O)[C@@H]2O)c2ncnc(N)c12 ; cells: MEF ; result: 175 µM
COC(=O)C(N)(c1c[nH]c2ccc(C)cc12)C(F)(F)F ; cells: TZM-bl ; method: MTT ; result: >140 µM
O=c1cc(-c2ccccc2)oc2cc(O)c(O)c(O)c12 ; cells: HepG2 2.2.15 ; result: >100 µM
O=C1NC(=O)C(c2ccccc2)(c2ccccc2)N1 ; cells: THP-1 ; result: >40 µg/mL
COc1cc([C@@H]2c3cc4c(cc3[C@H](OC(C)=O)[C@@H]3COC(=O)[C@@H]23)OCO4)cc(OC)c1OC ; cells: P-388 ; result: 0.55 µM
O=c1[nH]c(=O)n([C@@H]2O[C@@H](CO)C[C@H]2F)cc1Cl ; cells: PBM ; result: >100 µM
Nc1ncnc2c1ncn2CCOCP(=O)(O)O ; cells: Feline thymocyte ; method: MTT ; result: 7 µM
COC(=O)C(C)c1cc([NH+]([O-])O)c(CC(C)C)c([NH+]([O-])O)c1 ; cells: RAW 264.7 ; method: resazurin / fluorescence ; result: 250 µg/mL
O=c1[nH]c(-c2ccc(O)c(O)c2O)nc2ccccc12 ; cells: OM-10.1 ; method: MTT ; result: 51 µM
CCOC(=O)C(N)(C1=CNC2C(C)=CC=CC12)C(F)(F)F ; cells: TZM-bl ; method: MTT ; result: >133 µM
O=c1[nH]c(=O)n([C@@H]2O[C@@H](CO)C[C@H]2F)cc1F ; cells: PBM ; result: >100 µM
COC(=O)CC(O)(CCCC(C)(C)O)C(=O)O[C@@H]1C(OC)=C[C@]23CCCN2CCc2cc4c(cc2[C@@H]13)OCO4 ; cells: EBTR ; result: <10 µM
FC(F)(F)c1ccc(NC(=S)NCCc2ccccc2)nc1 ; cells: HUMAN SPERM ; result: >500 µM
O=C(Oc1c(-c2ccc(Cl)cc2)oc2ccccc2c1=O)c1cc(O)c(O)c(O)c1 ; cells: KB ; result: 6.7 µM
Nc1ncnc2c1ncn2CCOCP(=O)(O)O ; cells: BCBL-1 ; result: 22 µg/mL
N/C(=N/O)c1cn([C@H]2C[C@H](O)[C@@H](CO)O2)c2ncnc(N)c12 ; cells: MEF ; result: 85 µM
O=C1C=C2C=C[C@@H]3C[C@@]2(O1)[C@H]1CCCCN31 ; cells: Human foreskin fibroblasts (HFF) ; method: MTT ; result: 81 µM
COc1cc(/C=C/C(=O)CC(=O)/C=C/c2ccc(O)c(OC)c2)ccc1O ; cells: HepG2 2.2.15 ; result: >100 µM
Cc1c(O)cccc1C(=O)N[C@@H](CSc1ccccc1)[C@H](O)CN1C[C@H]2CCCC[C@H]2C[C@H]1C(=O)NC(C)(C)C ; cells: HCT-8 ; result: >250 µg/mL
COC(=O)[C@@H]1C[C@@H](O[Si](C)(C)C(C)(C)C)[C@H]2CCCCN21 ; cells: Human foreskin fibroblasts (HFF) ; method: MTT ; result: 80 µM
CNc1ncnc2c1ncn2[C@@H]1O[C@@H](CO)C[C@H]1F ; cells: PBM ; result: >100 µM
CCc1c(Sc2ccccn2)n(COCc2ccccc2)c(=O)[nH]c1=O ; cells: T4 ; method: XTT ; result: >0.98 µM
COc1cc(/C=C/C(=O)Oc2c(-c3ccc(Cl)c(Cl)c3)oc3ccccc3c2=O)ccc1O ; cells: KB ; result: 2.1 µM
C=CCC1[C@H](O[Si](C)(C)C(C)(C)C)C[C@@H](C(=O)OC)N1C(=O)OC(C)(C)C ; cells: Human foreskin fibroblasts (HFF) ; method: MTT ; result: 32 µM
CC(C)n1nc(-c2ccc3oc(N)nc3c2)c2c(N)ncnc21 ; cells: U1 ; method: MTT ; result: >0.01 µM
COC(=O)[C@@H]1[C@H](c2cc(OC)c3nc4cc(C)c(C)cc4nc3c2)c2cc3c(cc2C2=NOC[C@@H]21)OCO3 ; cells: MEL-28 ; result: 1 µM
C/C(=N\OCc1ccc(F)cc1)c1c(C)cc(=O)n(O)c1O ; setting: 3 d ; cells: HepDES19 ; method: MTS ; result: 81 µM
O=C(O[C@@H]1Cc2c(O)cc(O)cc2O[C@@H]1c1cc(O)c(O)c(O)c1)c1cc(O)c(O)c(O)c1 ; cells: HCT-8 ; result: >100 µM
Cc1cc(O)c2c(c1)/C(=C1\c3cc(C)cc(O)c3C(=O)c3c(O)cc(O)cc31)c1cc(O)cc(O)c1C2=O ; cells: MRC-5 ; result: 1.6 µM
Cc1nnc(C(C)C)n1C1C[C@H]2CC[C@@H](C1)N2CC[C@H](NC(=O)C1CCC(F)(F)CC1)c1ccccc1 ; cells: PM1 ; method: MTS ; result: >10 µM
Fc1ccccc1CCNC(=S)Nc1ccc(Br)cn1 ; cells: Human vaginal epithelial ; result: >1000 µM
Cc1cc(O)c2c(c1)Cc1cc(O)cc(O)c1C2=O ; cells: MRC-5 ; result: 3.5 µM
O=C1C=CN([C@@H]2O[C@H](CO)[C@@H](O)[C@H]2O)C(=O)C1 ; cells: VERO 76 ; result: 320 µg/mL
Fc1cccc(CCNC(=S)Nc2ccc(C(F)(F)F)cn2)c1 ; cells: HUMAN SPERM ; result: >500 µM
Nc1nc2c(ncn2COCCO)c(=O)[nH]1 ; cells: P3HR-1 ; result: 88 µg/mL
NC(=O)c1cn([C@H]2C[C@H](O)[C@@H](CO)O2)c2ncnc(N)c12 ; cells: MEF ; result: 7 µM
Cc1cn([C@H]2C[C@H](N=[N+]=[N-])[C@@H](CO)O2)c(=O)[nH]c1=O ; cells: MT4-GFP ; method: ATP / luminescence ; result: >8.4 µM
S=C(NCCC1=CCCCC1)Nc1ccccn1 ; cells: HUMAN SPERM ; result: >500 µM
COc1cc2c(cc1OC)[C@]13C[C@@H](OC)C=CC1=CCN3CC2 ; cells: HEP-2 ; method: MTT ; result: 21.6 µg/mL